# Values of other authors as cited in publication PMC7854729 (Nature Communications, 2021).
# System: SARS-CoV PLpro
# Details: cited from earlier work
smiles,measurement,value
"Cc1ccc(N)cc1C(=O)N[C@H](C)c1cccc2ccccc12 [Compound 1, 5-amino-2-methyl-N-[(1R)-1-naphthalen-1-ylethyl]benzamide]",IC50,0.6 µM
